A mixed list of measured activities; the numbers were collected in NIAID ChemDB.

All rows: whole-cell or culture tests; species: HIV-1

Rows are shuffled and stem from different studies.

smiles | method | measure | changes | conditions | cell line | strain or isolate | result
Cc1cc(C#N)cc(C)c1Oc1ccnc(NC2CCN(Cc3ccc(S(C)(=O)=O)cc3)CC2)n1 | MTT | EC50 | Resistant strain (K103N + Y181C) | - | MT-4 | IIIB | 0.02 µM
Cc1cn([C@H]2C[C@H](N=[N+]=[N-])[C@@H](CO)O2)c(=O)[nH]c1=O | p24 / ELISA | EC50 | - | - | MT-4 | BH10 | 0.06803 µM
Nc1ncnc2c1ncn2C1OC(CO)C=C1F | RT activity | EC50 | - | - | PBMC | LAV | 1.5 µM
Nc1ncnc2c1ncn2[C@H]1CC[C@@H](CO)O1 | cytopathic effect / p24 / trypan blue | EC90 | - | - | MT-4 | IIIB | 150 µM
CS(=O)(=O)O[C@H]1C[C@H](n2ccc(=O)[nH]c2=O)O[C@@H]1COP(=O)(OCC(Cl)(Cl)Cl)OCC(Cl)(Cl)Cl | p24 / ELISA | EC50 | - | - | MT-2 | RF | 200 µM
COC(O)c1cc(O)c(O)c(O)c1 | syncytia | EC50 | - | - | C8166 | IIIB | 16.2 µM
COc1ccc2c(c1)N(C(=O)OC(C)C)[C@@H](CSC)C(=S)N2 | p24 | EC50 | RT-L74V G190E | - | H9 | A2(RT-L74V G190E) | >10 µg/mL
CC(C)(C)NC(=O)[C@@H]1CN(Cc2cccnc2)CCN1C[C@@H](O)C[C@@H](Cc1ccccc1)C(=O)N[C@H]1c2ccccc2C[C@H]1O | GFP / reporter gene | EC50 | - | - | CEM-GXR | NL4-3 | 0.029 µM
CC(C)=CCC/C(C)=C/CC/C(C)=C/CC/C(C)=C/Cc1cc(O)cc2c1OC(=O)C2 | MTT | EC50 | - | - | MT-4 | IIIB | 30.66 µM
CCCN(C)C(=O)Oc1nsnc1-c1c(Cl)cccc1Cl | cytopathic effect | EC50 | - | - | MOLT-4 | IIIB | 0.007 µM
CO[P@](=O)(c1cc(C)cc(/C=C/C#N)c1)c1c(C(N)=O)[nH]c2ccc(Cl)c(F)c12 | - | EC50 | Y181C/K103N | - | MT-4 | BH10 | 0.0035 µM
Cc1ccnc2c1NC(=O)c1cccnc1N2C1CC1 | RT activity | EC50 | - | - | PBL (resting) + PBL | IIIB | ~0.03 µM
O=C(O)c1cc(O)c(O)c(O)c1 | syncytia | EC50 | - | - | C8166 | IIIB | 18.48 µM
Cc1c(O)cccc1C(=O)N[C@@H](CSc1ccccc1)[C@H](O)CN1C[C@H]2CCCC[C@H]2C[C@H]1C(=O)NC(C)(C)C | cytopathic effect / MTT | EC50 | - | - | MT-4 | NL4-3 PR-S12T I15V I19L M36I R41K H69K L89M I93L CLONE 6( C ) | 0.0322 µM
Nc1ccn([C@H]2CC[C@@H](CO)O2)c(=O)n1 | RT activity | EC50 | RT-M184V P294S | - | MT-4 | HXB2-D184+294 (RT M184V P294S) | 2.6 µM
CC(=O)O[C@H]1C[C@H](n2ccc(=O)[nH]c2=O)O[C@@H]1COP(=O)(OCC(Cl)(Cl)Cl)OCC(Cl)(Cl)Cl | p24 / ELISA | EC50 | - | - | MT-2 | RF | >200 µM
Cc1cn([C@H]2C[C@H](N=[N+]=[N-])[C@@H](CO)O2)c(=O)[nH]c1=O | cytopathic effect / MTT | EC50 | RT-Y181C | - | MT-4 | IIIB MKC-442-resistant (RT Y181C) | 0.001 µM
Cc1cn([C@H]2C=C[C@@H](CO)O2)c(=O)[nH]c1=O | - | EC50 | - | - | MDM | NL4-3 | 0.3 µM
CC(=O)N(C)C1CCn2c1nc(C(=O)NCc1ccc(F)cc1)c(O)c2=O | p24 / ELISA | EC95 | - | 50% human serum | MT-4 | IIIB | >1 µM
Cc1ccnc2c1NC(=O)c1cccnc1N2C1CC1 | - | EC50 | +Vpx | - | MT-4 | NL4-3 | 0.295 µM
CCc1c(Sc2cc(C)cc(C)c2)n(COCCO)c(=O)[nH]c1=O | cytopathic effect | EC50 | - | - | MT-4 | IIIB | 0.007 µM
NC(=O)C(c1ccccc1)(c1ccccc1)[C@H]1CCCN(CCc2ccc3c(c2)CCO3)C1 | cytopathic effect / XTT | EC50 | - | - | MT-2 | NL4-3 | 1.2 µM
Cc1cn([C@H]2C[C@H](OS(C)(=O)=O)[C@@H](COP(=O)(OCC(Cl)(Cl)Cl)OCC(Cl)(Cl)Cl)O2)c(=O)[nH]c1=O | p24 / ELISA | EC50 | - | - | C8166 | RF | 8 µM
S=C(NCCC1=CCCCC1)Nc1nccs1 | - | EC50 | - | - | PBMC | IIIB | 0.03 µM
COc1ccc(/C=C/C(=O)O)cc1OC | syncytia | EC50 | - | - | C8166 | IIIB | 7.16 µM
Cc1cn([C@H]2C[C@H](N=[N+]=[N-])[C@@H](CO)O2)c(=O)[nH]c1=O | cytopathic effect / XTT | EC50 | RT-V108I | - | CEM + CEM-SS | NL4-3 | 0.01 µM
O=C1NCCc2cc(Br)c(c(Br)c2)Oc2cc(cc(Br)c2O)CCNC(=O)/C(=N/O)Cc2cc(Br)c(c(Br)c2)Oc2cc(cc(Br)c2O)C/C1=N/O | GFP / reporter gene | EC50 | - | - | CEM-GXR | NL4-3 | 1.2 µM
COc1cc([C@@H]2c3c(cc(OC)c(O)c3OC)C[C@H](CO)[C@H]2CO)cc(OC)c1O | syncytia | EC50 | - | - | C8166 | IIIB | 87.89 µM
Cc1cn([C@H]2C=C[C@@H](CO)O2)c(=O)[nH]c1=O | RT activity | EC50 | - | - | PBL (resting) + PBL | SF162 R5 | >4 µM
Cc1cc(C)c(Oc2ccc([N+](=O)[O-])c(NC3CCN(Cc4ccncc4)CC3)n2)c(C)c1 | MTT | EC50 | Resistant strain (K103N + Y181C) | - | MT-4 | IIIB | >239 µM
COc1ccc(CN[C@@H](C(=O)N[C@H](C(=O)NCc2nc3ccccc3[nH]2)C(C)C)[C@H](O)[C@H](Cc2ccccc2)NC(=O)[C@@H](NC(=O)[C@@](C)(O)c2ccccc2)C(C)(C)C)cc1 | cytopathic effect / MTT | EC50 | - | - | MT-4 | IIIB | 0.038 µM
CN(C)C(=O)C(=O)N(C)C1CCn2c1nc(C(=O)NCc1ccc(F)cc1)c(O)c2=O | p24 / ELISA | EC95 | - | 50% human serum | MT-4 | IIIB | >1 µM
Cc1ccnc2c1NC(=O)c1cccnc1N2C1CC1 | MTT | EC50 | Resistant strain (K103N + Y181C) | - | MT-4 | IIIB | 5.1 µM
CC(=O)[C@]12CCC(C)(C)C=C1C1=CCC3[C@@]4(C)CCC(=O)C(C)(C)C4CC[C@@]3(C)[C@]1(C)CC2 | MTT | EC50 | - | - | MT-4 | IIIB | 37.62 µM
Cc1cn([C@H]2C[C@H](N=[N+]=[N-])[C@@H](CO)O2)c(=O)[nH]c1=O | p24 / ELISA | EC50 | - | - | C8166 | RF | 0.02 µM
CC(C)(C)NC(=O)[C@@H]1C[C@@H]2CCCC[C@@H]2CN1C[C@@H](O)[C@H](Cc1ccccc1)NC(=O)[C@H](CC(N)=O)NC(=O)c1ccc2ccccc2n1 | cytopathic effect / MTT | EC50 | - | - | MT-4 | NL4-3 PR S12T I15V I19L M36I R41K H69K L89M CLONE 5( C ) | 0.0029 µM
C=C(C)OC(=O)N1c2cc(Cl)ccc2NC(=S)C1(C)C | p24 | EC50 | RT-L74V G190E | - | H9 | A2(RT-L74V G190E) | >1 µg/mL
CCCCN(C)C(=O)Oc1nsnc1-c1c(Cl)cccc1Cl | cytopathic effect | EC50 | - | - | MT-4 | IIIB | 0.0338 µM
COc1cc(C[C@H](C)[C@H](C)Cc2ccc(O)c(O)c2)ccc1O | p24 | EC50 | - | - | PBMC | WM | 2 µg/mL
Cc1cc(C)c(Oc2ccc([N+](=O)[O-])c(NC3CCN(Cc4ccc(S(N)(=O)=O)cc4)CC3)n2)c(C)c1 | MTT | EC50 | - | - | MT-4 | IIIB | 0.0085 µg/mL
Cc1ccnc2c1NC(=O)c1cccnc1N2C1CC1 | recombinant virus assay | EC50 | - | - | - | HXB2 | 0.022 µM
Nc1nc(NC2CC2)c2ncn([C@H]3C=C[C@@H](CO)C3)c2n1 | - | EC50 | - | - | Primary T lymphocytes | NL4-3 | 0.015 µM
Cc1ccnc2c1NC(=O)c1cccnc1N2C1CC1 | cytopathic effect / XTT | EC50 | RT-L74V | - | CEM + CEM-SS | NL4-3 | 0.02 µM
Cc1nnc(C(=O)NC(C)(C)c2nc(C(=O)NCc3ccc(F)cc3)c(O)c(=O)n2C)o1 | - | EC50 | - | - | Primary T lymphocytes | NL4-3 | 0.017 µM
S=C(NCCC1=CCCCC1)Nc1ccc(Cl)cn1 | - | EC50 | RT-K103N Y181C | - | PBMC | A17 | 30 µM
O=c1[nH]cnc2c1ncn2[C@H]1O[C@@H](CO)C=C1F | RT activity | EC50 | - | - | PBMC | LAV | >100 µM
NC(=O)c1ncn([C@H]2O[C@@H](COP(=O)(O)OC[C@@H]3C=C[C@H](n4cnc5c(=O)[nH]cnc54)O3)[C@H](O)[C@@H]2O)n1 | cytopathic effect | EC50 | - | - | MT-4 | IIIB | >17.5 µM
Cc1cn([C@H]2C[C@H](N=[N+]=[N-])[C@@H](CO)O2)c(=O)[nH]c1=O | p24 | EC50 | - | - | PBMC | NL4-3 | 0.001 µM
CC(C)Nc1cccnc1N1CCN(C(=O)c2cc3cc(NS(C)(=O)=O)ccc3[nH]2)CC1 | - | EC50 | - | - | PBMC | IIIB | 0.009 µM
CC(=O)c1ccc(C)cc1NC(C(N)=O)c1c(Cl)cccc1Cl | MTT | EC50 | - | - | MT-4 | IIIB-R | >10 µM
Cc1cn([C@H]2C[C@H](N=[N+]=[N-])[C@@H](CO)O2)c(=O)[nH]c1=O | RT activity | EC50 | - | - | PBL (resting) + PBL | IIIB | 0.033 µM
Cc1cccc(NC(=S)NCCC2=CCCCC2)n1 | - | EC50 | - | - | PBMC | IIIB | 0.017 µM

For reference, 6 entries again:

smiles,method,measure,changes,conditions,cell line,strain or isolate,result
Cc1cn([C@H]2C=C[C@@H](CO)O2)c(=O)[nH]c1=O,-,EC50,-,-,MDM,NL4-3,0.3 µM
COc1cc([C@@H]2c3c(cc(OC)c(O)c3OC)C[C@H](CO)[C@H]2CO)cc(OC)c1O,syncytia,EC50,-,-,C8166,IIIB,87.89 µM
Cc1ccnc2c1NC(=O)c1cccnc1N2C1CC1,cytopathic effect / XTT,EC50,RT-L74V,-,CEM + CEM-SS,NL4-3,0.02 µM
Cc1ccnc2c1NC(=O)c1cccnc1N2C1CC1,recombinant virus assay,EC50,-,-,-,HXB2,0.022 µM
Cc1cn([C@H]2C[C@H](N=[N+]=[N-])[C@@H](CO)O2)c(=O)[nH]c1=O,p24 / ELISA,EC50,-,-,C8166,RF,0.02 µM
CC(C)(C)NC(=O)[C@@H]1CN(Cc2cccnc2)CCN1C[C@@H](O)C[C@@H](Cc1ccccc1)C(=O)N[C@H]1c2ccccc2C[C@H]1O,GFP / reporter gene,EC50,-,-,CEM-GXR,NL4-3,0.029 µM

ECn: concentration that inhibits the pathogen or its effect by n%. Blank or dashed fields: not listed here.